Anti-infective test results gathered from many reports (values: NIAID ChemDB through PubChem).

Shared fields: tests in culture; species: Mycobacterium tuberculosis

Blank or dashed fields: not listed here. Conditions beyond the fields shown may differ between rows. MIC bound comes from a single tested concentration. A number after MIC or MFC names an inhibition level or a share of isolates. Percent inhibition refers to the dose given; in toxicity tests it is the harm to the cells.

structure,conditions,changes,endpoint,read by,strain or isolate,tested at,value
CC(C)(C)c1cccc(N2CC3CN(Cc4ccc([N+](=O)[O-])o4)CC3C2)c1,,INH RFP resistant,MIC90,resazurin,Clinical Isolate 16833,,2.22 µg/mL
CC(=O)Oc1ccccc1C(=O)Nc1ncc([N+](=O)[O-])s1,,,MIC,visual reading,T spoligotype 5,,24 µg/mL
COc1cc(C)c2c(=O)c3c(oc2c1)C(=O)c1c(O)c(OC)cc(O)c1C3=O,,,MIC,,KM-R,,12.5 µg/mL
CN(C)C/C=C(\c1ccc(I)cc1)c1ccc(-c2ccc(Br)cc2)cc1,,,MIC,,ALI 536,,≤4 µg/mL
COc1ccc(CC(=O)N2CCN(S(=O)(=O)c3cccc4cnccc34)CC2)c(OC)c1,,Inosine monophosphate dehydrogenase-resistant,MIC90,resazurin,SRMV2.6,,>250 µM
CCOC(=O)C[C@H](NCCCCCCCCCCCCN[C@@H](CC(=O)OCC)C1O[C@@H]2OC(C)(C)O[C@@H]2[C@H]1OCc1ccccc1)C1O[C@@H]2OC(C)(C)O[C@@H]2[C@H]1OCc1ccccc1,,,MIC,,H37Rv,,>50 µg/mL
CCCOC(=O)C1=C(C)OC23OC(N)=C(C#N)C12C(=O)c1ccccc13,,,MIC,resazurin,18b,,8 µg/mL
O=c1[nH]cnc2ncccc12,,,MIC bound,resazurin,H37Rv,,>6.25 µg/mL
CC1CCCCC1C(=O)N1CCN(S(=O)(=O)c2cccc3cnccc23)CC1,,Inosine monophosphate dehydrogenase-resistant,MIC90,resazurin,SRMV2.6,,>250 µM
CN(C)C/C=C(/c1ccccc1)c1ccc(-c2ccc(Br)cc2)cc1,,,MIC,,ALI 3415,,40 µg/mL
CC1(C)C[C@H]2[C@@H](C1)[C@@H](C(CCO)NCCCCCCCCCCNC(CCO)[C@H]1O[C@@H]3CC(C)(C)C[C@@H]3[C@H]3CC(C)(C)C[C@H]31)O[C@@H]1CC(C)(C)C[C@H]21,,,MIC,,H37Rv,,>25 µg/mL
N#Cc1ccc(N2CC3CC2CN3Cc2ccc([N+](=O)[O-])o2)cc1,,INH RFP resistant,MIC90,resazurin,Clinical Isolate 16995,,5.94 µg/mL
C=CCSS/C=C/CS(=O)CC=C,,,MIC bound,BACTEC,H37Rv,,≤12.5 µg/mL
O=C(NCCNS(=O)(=O)c1cccc2cnccc12)C1CCCCC1,,Inosine monophosphate dehydrogenase-resistant,MIC90,resazurin,SRMV2.6,,>250 µM
CC(C)n1[nH]c(=O)c2c1NC(=O)CSC2c1ccccc1,,,MIC,resazurin,18b,,8 µg/mL
Cc1c(C)c2c(c3c1OC(C)(C)CC3)CCC(C)(C)O2,,,MIC bound,BACTEC,H37Rv,,>12.5 µg/mL
NC(=O)c1cnccn1,7 d,,inhibition,,TB213,800 µg/mL,97.9%
O=C(c1ccncc1)N1N=C(c2ccco2)CC1(O)C(Cl)(Cl)Cl,,,MIC,,RGH104,,>268 µM
CN(C)C/C=C(/c1ccc(Br)cc1)c1ccc(-c2ccc(Br)cc2)cc1,,,MIC,,H37Ra,,34 µg/mL
O=C(Nc1cccc(Cl)c1Cl)N1CCN(S(=O)(=O)c2cccc3cnccc23)CC1,,Inosine monophosphate dehydrogenase-resistant,MIC90,resazurin,SRMV2.6,,>250 µM
C=CCN1CCN(c2ccncc2S(=O)(=O)N2CCN(C)CC2)CC1,,,inhibition,resazurin,H37Rv,6.25 µg/mL,1%
O=C(O)c1[nH]c2ccccc2c1CNCCc1ccc(Cl)cc1,,,MIC,resazurin,Clinical isolate,,16 µg/mL
COc1ccc2cc(CN(C(=O)Nc3ccc(F)cc3F)C3CCCCCC3)c(=O)[nH]c2c1,14 d,,MIC,broth dilution,H37Rv (ATCC 27294),,>64 µg/mL
CC1(C)C[C@H]2[C@@H](C1)[C@@H]([C@H](CCO)NCCCCCCCCN[C@@H](CCO)[C@H]1O[C@@H]3CC(C)(C)C[C@@H]3[C@H]3CC(C)(C)C[C@H]31)O[C@@H]1CC(C)(C)C[C@H]21,,,MIC,,H37Rv,,>25 µg/mL
COc1ccc(/C(O)=C/c2nc3cc(Cl)ccc3oc2=O)cc1,,,MIC,resazurin,18b,,4 µg/mL
S=C1SCN(c2ccc3c(c2)OCO3)CN1c1ccc2c(c1)OCO2,,,MIC bound,BACTEC,H37Rv,,>12.5 µg/mL
O=C(O)COc1ccc(-c2ccc([N+](=O)[O-])cc2)c(CN2CCN(c3ccccn3)CC2)c1,,,MIC,broth dilution,H37Rv (ATCC 27294),,32 µg/mL
CO[C@H](C(=O)[C@@H](O)[C@@H](C)O)[C@@H]1Cc2cc3cc(O[C@H]4C[C@@H](O[C@H]5C[C@@H](O)[C@H](O)[C@@H](C)O5)[C@@H](O)[C@@H](C)O4)c(C)c(O)c3c(O)c2C(=O)[C@H]1O[C@H]1C[C@@H](O[C@H]2C[C@@H](O[C@H]3C[C@](C)(O)[C@H](O)[C@@H](C)O3)[C@H](O)[C@@H](C)O2)[C@H](O)[C@@H](C)O1,,,MIC,BACTEC,H37Rv,,≥12.8 µg/mL
CN(C)CC=C(c1ccccc1)c1ccc(-c2ccc(Br)cc2)cc1,,,MIC,,ALI 552,,10 µg/mL
CN[C@@H](C)[C@H](O)c1ccccc1,,,MIC,BACTEC,H37Rv,,≥128 µg/mL
CCOC(=O)C[C@H](NCCCCCCCCCN[C@@H](CC(=O)OCC)C1O[C@@H]2OC(C)(C)O[C@@H]2[C@H]1OCc1ccccc1)C1O[C@@H]2OC(C)(C)O[C@@H]2[C@H]1OCc1ccccc1,,,MIC,,H37Rv,,6.25 µg/mL
CC1=C(C(=O)Nc2ccc(C)cc2C)C(c2ccccc2Cl)C(C(=O)Nc2ccc(C)cc2C)=C(C)N1,,,MIC,,H37Rv,,>12.5 µg/mL
CN(C)CC=C(c1ccc(Br)cc1)c1ccc(-c2ccc(Br)cc2)cc1,,,MIC,,ALI 544,,17 µg/mL
NC[C@H]1O[C@H](O[C@H]2[C@H](O)[C@@H](O[C@H]3O[C@H](CO)[C@@H](O)[C@H](N)[C@H]3O)[C@H](N)C[C@@H]2N)[C@H](O)[C@@H](O)[C@@H]1O,,,MIC,,Isolate TN6515,,1.5 µg/mL
COC(=O)C1C2CC3c4[nH]c5cc(OC)ccc5c4CCN3CC2CC(OC(=O)CC(C)=O)C1OC,,,inhibition,BACTEC,H37Rv,12.5 µg/mL,7%
CCCCNC(=O)Oc1ccc2c(c1)OC(=O)C2,,,MIC,resazurin,Clinical isolate,,4 µg/mL
CC(C)(C)c1ccc(N2CCC3(CCN(Cc4ccc([N+](=O)[O-])o4)CC3)CC2)cc1,,INH RFP resistant,MIC90,resazurin,Clinical Isolate 16995,,2.47 µg/mL
CN[C@@H]1[C@H](O[C@H]2[C@H](O[C@H]3[C@H](O)[C@@H](O)[C@H](N=C(N)N)[C@@H](O)[C@@H]3N=C(N)N)O[C@@H](C)[C@]2(O)C=O)O[C@@H](CO)[C@H](O)[C@H]1O,,,MIC,,9127,,≥2 µg/mL
Cc1ccc(C(=O)CN2C(=O)COc3ccccc3C2=O)cc1,,,MIC,resazurin,18b,,4 µg/mL
COc1ccc(OC)c(C2C(C(=O)Nc3ccc(F)c(Cl)c3)=C(C)NC(C)=C2C(=O)Nc2ccc(F)c(Cl)c2)c1,,,MIC,,H37Rv,,>6.25 µg/mL
CCC1CN(c2c(F)cc3c(=O)c(C(=O)O)cn(C4CC4)c3c2OC)CCN1,,,MIC,,Isolate TN7829,,0.1 µg/mL
CCOC(=O)Nc1nc2cc(C(=O)OC)n(C)c2s1,,,inhibition,resazurin,H37Rv,6.25 µg/mL,-65%
O=C(c1ccncc1)N1N=C(c2cccs2)CC1(O)C(F)(F)F,,,MIC,,H37Rv,,>293 µM
COc1cc(C2C(C(=O)Nc3ccccc3)=C(C)NC(C)=C2C(=O)Nc2ccccc2)cc(OC)c1OC,,,MIC,,H37Rv,,>12.5 µg/mL
CCCCNCC(=O)Nc1ccc(C)c(Cl)c1,,,inhibition,BACTEC,H37Rv,12.5 µg/mL,67%
CC(=O)NC[C@H]1CN(c2ccc(N3CCOCC3)c(F)c2)C(=O)O1,,,MIC,,158 strains,,>16 µg/mL
Cc1ccc(C2=NN(C(=O)c3ccncc3)C(O)(C(Cl)(Cl)Cl)C2)cc1,,,MIC,,RGH102,,>252 µM
O=S(=O)(c1cccc2cnccc12)N1CCN(C(=S)Nc2ccc3c(c2)OCO3)CC1,,Inosine monophosphate dehydrogenase-resistant,MIC90,resazurin,SRMV2.6,,>100 µM
COC(=O)C1=C(C)N(c2ccc(OC)cc2)C(C)=C(C(=O)OC)C1c1ccc(Cl)cc1,,,MIC,,H37Rv,,>6.25 µg/mL
C=C1C(=O)OC2CC1C(OC(C)=O)CC1(C)OC1CCC1(C)OC1CCC2(C)O,,,inhibition,resazurin,H37Rv,6.25 µg/mL,10%
COc1ccc2cc(CN(C(=O)Nc3ccc(F)cc3)C3CCCCC3)c(=O)[nH]c2c1,7 d,,MIC,broth dilution,H37Rv (ATCC 27294),,>64 µg/mL
O=C(c1ccncc1)N1N=C(c2ccco2)CC1(O)C(F)(F)F,,,MIC,,RGH103,,19.23 µM
CC[C@@H](CO)NCCN[C@@H](CC)CO,,,MIC,broth dilution / resazurin,MDR21,,8 µg/mL
CO[C@H]1/C=C/O[C@@]2(C)Oc3c(C)c(O)c4c(O)c(c(/C=N/N5CCN(C6CCCC6)CC5)c(O)c4c3C2=O)NC(=O)/C(C)=C\C=C\[C@H](C)[C@H](O)[C@@H](C)[C@@H](O)[C@@H](C)[C@H](OC(C)=O)[C@@H]1C,,,MIC,,Isolate 900145 drug-susceptible,,0.125 µg/mL
CC1COc2c(N3CCN(C)CC3)c(F)cc3c(=O)c(C(=O)O)cn1c23,,,MIC,agar,08-685,,1 µg/mL
C[n+]1c(-c2ccc(NC(=O)c3ccc(C(=O)Nc4ccc(-c5cn6ccccc6[n+]5C)cc4)cc3)cc2)cn2ccccc21,,,MIC bound,BACTEC,H37Rv,,≤12.5 µg/mL
O=C(Cc1ccc(F)cc1)N1CCN(S(=O)(=O)c2cccc3cnccc23)CC1,,Inosine monophosphate dehydrogenase-resistant,MIC90,resazurin,SRMV2.6,,>100 µM
CC(NC(=O)c1ccccc1Cl)c1nnc(SCc2ccc(F)cc2)n1Cc1cccnc1,14 d,,MIC,broth dilution,H37Rv (ATCC 27294),,>64 µg/mL
CO[C@H]1/C=C/O[C@@]2(C)Oc3c(C)c(O)c4c(O)c(c(/C=N/N5CCN(C)CC5)c(O)c4c3C2=O)NC(=O)/C(C)=C\C=C\[C@H](C)[C@H](O)[C@@H](C)[C@@H](O)[C@@H](C)[C@H](OC(C)=O)[C@@H]1C,,,MIC,,9133,,≥2 µg/mL
O=C1CC(SC(=S)N2CCOCC2)C(=O)N1,,,MIC,,INH-r,,6.4 µg/mL
CC1(C)C[C@H]2[C@@H](C1)[C@@H](C(CCO)NCCCCNC(CCO)[C@H]1O[C@@H]3CC(C)(C)C[C@@H]3[C@H]3CC(C)(C)C[C@H]31)O[C@@H]1CC(C)(C)C[C@H]21,,,MIC,,H37Rv,,>25 µg/mL
C1CCNCC1.S=C(S)N1CCCCC1,,,MIC,,CS-R,,0.8 µg/mL
CN(C)C/C=C(/c1ccc(-c2ccc(Br)cc2)cc1)c1ccc([N+](=O)[O-])cc1,,,MIC,,ALI 282,,18.5 µg/mL
Cc1ccc(NC(=O)COc2ccc(Cl)cc2)cc1Cl,,,inhibition,BACTEC,H37Rv,12.5 µg/mL,0%
CO[C@H]1/C=C/O[C@@]2(C)Oc3c(C)c(O)c4c(O)c(c(/C=N/N5CCN(C)CC5)c(O)c4c3C2=O)NC(=O)/C(C)=C\C=C\[C@H](C)[C@H](O)[C@@H](C)[C@@H](O)[C@@H](C)[C@H](OC(C)=O)[C@@H]1C,,INH RFP resistant,MIC90,resazurin,Clinical Isolate 16995,,>40 µg/mL
CCN(CC)c1ccc2nc3c4ccccc4c(=N)cc-3oc2c1,,,MIC,,EMB-R,,6.3 µg/mL
CSc1ccc(-c2ccc(OCC(=O)O)cc2CN2CCN(c3ccccn3)CC2)cc1,,,MIC,broth dilution,H37Rv (ATCC 27294),,64 µg/mL
CC(C)CCCC(=O)CCCCCCC(=O)CCN(O)C(=O)C(N)CO,,,inhibition,BACTEC,H37Rv,12.5 µg/mL,5%
CC(C)(C)c1ccc(N2CCN(Cc3ccc([N+](=O)[O-])o3)CC2)cc1,,,MIC90,resazurin,H37Rv,,0.016 µg/mL
O=C1CCCN1C(=S)[S-].[K+],,,MIC,BACTEC,H37Rv,,≥128 µg/mL
CC(NC(=O)c1c(F)cccc1Cl)c1nnc(SCCOc2ccc(F)cc2)n1Cc1cccnc1,14 d,,MIC,broth dilution,H37Rv (ATCC 27294),,>64 µg/mL
Cc1c([N+](=O)[O-])cc(NC(=O)/C=C\C(=O)O)cc1[N+](=O)[O-],,,MIC bound,BACTEC,H37Rv,,>12.5 µg/mL
CCOc1ccc(S(=O)(=O)[C@H]2CS(=O)(=O)C[C@@H]2NCC(C)C)cc1,,,MIC,resazurin,18b,,16 µg/mL

The first 7 rows once more:

structure,conditions,changes,endpoint,read by,strain or isolate,tested at,value
CC(C)(C)c1cccc(N2CC3CN(Cc4ccc([N+](=O)[O-])o4)CC3C2)c1,,INH RFP resistant,MIC90,resazurin,Clinical Isolate 16833,,2.22 µg/mL
CC(=O)Oc1ccccc1C(=O)Nc1ncc([N+](=O)[O-])s1,,,MIC,visual reading,T spoligotype 5,,24 µg/mL
COc1cc(C)c2c(=O)c3c(oc2c1)C(=O)c1c(O)c(OC)cc(O)c1C3=O,,,MIC,,KM-R,,12.5 µg/mL
CN(C)C/C=C(\c1ccc(I)cc1)c1ccc(-c2ccc(Br)cc2)cc1,,,MIC,,ALI 536,,≤4 µg/mL
COc1ccc(CC(=O)N2CCN(S(=O)(=O)c3cccc4cnccc34)CC2)c(OC)c1,,Inosine monophosphate dehydrogenase-resistant,MIC90,resazurin,SRMV2.6,,>250 µM
CCOC(=O)C[C@H](NCCCCCCCCCCCCN[C@@H](CC(=O)OCC)C1O[C@@H]2OC(C)(C)O[C@@H]2[C@H]1OCc1ccccc1)C1O[C@@H]2OC(C)(C)O[C@@H]2[C@H]1OCc1ccccc1,,,MIC,,H37Rv,,>50 µg/mL
CCCOC(=O)C1=C(C)OC23OC(N)=C(C#N)C12C(=O)c1ccccc13,,,MIC,resazurin,18b,,8 µg/mL